Among the data in US20230256111A1, “C[…] ADC OR AN AOC COMPRISING A VHH, AND A SAPONIN OR A LIGAND-SAPONIN CONJUGATE” (SAPREME TECHNOLOGIES B.V., priority 2020, published 2023) are tumor response values, retold here.

In the experiment the test system is human A431 tumor cells (xenograft). Put plainly: A431 xenograft tumor model in nude mice, tumor volume. The note with it: Example 13, second experiment: 25 mg/kg cetuximab-(Cys-L-SO1861)^4 i.p. + 0.03 mg/kg toxin conjugate i.v., day 9, 14, then weekly (FIG. 21). Type of experiment: in vivo, mouse. How it is done: Female Balb/c nude mice were injected subcutaneously with a suspension of human A431 tumor cells. Under the skin of the mice, a human epidermal carcinoma developed in the xenograft animal tumor model. After injection of the tumor cells, the xenograft tumor was allowed to develop to a size of approximately 170-180 mm^3. The A431 tumor cells have the following characteristics: high EGFR expressors, medium 0071 expressors, low HER2 expressors.
In Table 6A, the results of the treatment of control mice and tumor-bearing mice are presented. Tumor-bearing mice were treated with the indicated antibodies directed to either human Her2/neu, human EGFR, or human CD71, which are cell-surface receptors on the xenograft tumor. Cetuximab was covalently conjugated with saponin SO1861. […] The dose of the ADCs was sub-optimal in the tumor model. That is to say, from previous experiments, it was established at which sub-optimal dose of the ADCs no tumor-regression or arrest of tumor growth would be observable.
The 2 target 2-components system (2T2C) is the combination treatment of mAb1-SO1861 and mAb2-protein toxin, (FIG. 1B-D).

For the substance “Cetuximab: monoclonal antibody recognizing and binding human EGFR”, the tumor response entry is recorded as “only tumor growth inhibition, but no regression”.
